Patent US20060127411A1 (priority 2002, published 2006)

Tested on: peripheral blood lymphocytes from patients with severe atopic eczema
Experiment: Spontaneous cytokine secretion, cytometric bead array, patients with atopic eczema
Conditions: patients with atopic eczema (n=3), 200 μg/10^6 cells, 2 days (FIG. 9)

Sequence: QELDYLTRH
- IFNγ synthesis: in particular also the IFNγ synthesis
- Spontaneous cytokine production of all Th populations (Th1 and Th2 cytokines): inhibits the increased cytokine production of all Th populations
